PubChem BioAssay AID624099, ICCB-Longwood – 2012

Purpose: 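Knock-downs relieving repression by E2 of an HPV18 LCR luciferase reporter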 (primary screen)
System: human C33A cervical carcinoma cells (HPV-negative) stably expressing BPV1 E2 and an HPV18 LCR luciferase reporter
Reagents: siRNA pool against human genes, 40 nM
Duration: 72 h
Detection: 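Per-well luciferase luminescence, z-scored on each plate against the plate mean and SD with control wells left out, then averaged across three replicate plates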
Reading the numbers: mean z-score and z-score: higher = stronger reporter signal, weaker E2 silencing
Active means: 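Hit if mean z-score reaches 2 and two or more of three replicate z-scores also reach 2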
The whole screen tested about 21,000 reagents; shown is a part drawn at random. 497 of them (2.4%) were called active. 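Higher z means weaker E2 silencing; only reporter increases were scored, and knock-downs that hurt cell survival may mask genuine repressor factors.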 Unmarked entries are inactive. Reagents against one gene are numbered here.

Target gene,reagent,mean z-score,"z-score, replicate A","z-score, replicate B","z-score, replicate C"
SLC27A5,1,-0.83,-0.46,-0.98,-1.06
ALDH18A1,1,-0.47,-0.27,-0.41,-0.73
OR4S1,1,-0.36,-0.63,-0.16,-0.28
LOC388686 (retired record),1,-0.17,-0.11,-0.25,-0.16
HCRT,1,-0.29,-0.47,-0.3,-0.09
DPP6,1,-0.71,-0.85,-0.79,-0.5
KCNQ1DN,1,1.27,1.22,1.1,1.51
OR52I1,1,0.12,0.36,0.25,-0.24
LOC389252 (retired record),1,-1.15,-0.63,-1.42,-1.41
PRKD3,1,-2.33,-2.89,-1.79,-2.29
CPT2,1,0.4,-0.07,0.41,0.86
MAMSTR,1,0.64,0.94,0.75,0.24
JMJD1C,1,-0.3,-0.53,-0.32,-0.06
NUP58,1,0.72,0.93,0.75,0.48
CDY2B,1,-0.62,-0.5,-0.73,-0.64
LCE4A,1,0.04,-0.1,0.18,0.03
GRID1,1,-0.82,-0.83,-0.85,-0.77
MBD3L2,1,0.84,1.26,0.61,0.65
LINC02910,1,-0.33,-0.54,-0.28,-0.16
GP9,1,-0.77,-0.31,-1.14,-0.87
KCNN4,1,-0.57,-0.56,-0.52,-0.64
PRDX1,1,-0.54,-0.81,-0.5,-0.33
PRODH2,1,-0.84,-0.56,-0.78,-1.18
DTHD1,1,-0.63,-0.43,-0.7,-0.76
MPND,1,1.27,1.45,1.44,0.9
CNN3-DT,1,1.38,1.2,1.45,1.48
IRGC,1,0.17,0.05,0.19,0.27
PNPLA7,1,-0.16,0.08,-0.34,-0.23

Part of the list above in another layout.
Target gene	reagent	mean z-score	z-score, replicate A	z-score, replicate B	z-score, replicate C
SLC27A5	1	-0.83	-0.46	-0.98	-1.06
ALDH18A1	1	-0.47	-0.27	-0.41	-0.73
OR4S1	1	-0.36	-0.63	-0.16	-0.28
LOC388686 (retired record)	1	-0.17	-0.11	-0.25	-0.16
HCRT	1	-0.29	-0.47	-0.3	-0.09
DPP6	1	-0.71	-0.85	-0.79	-0.5
KCNQ1DN	1	1.27	1.22	1.1	1.51

The listing continues:
Target gene,reagent,mean z-score,"z-score, replicate A","z-score, replicate B","z-score, replicate C"
CETN2,1,-0.11,-0.02,-0.07,-0.24
HS3ST3A1,1,1.35,1.26,1.66,1.13
POLI,1,1.42,1.53,1.65,1.08
MIRLET7BHG,1,-0.11,-0.13,0.36,-0.57
B3GAT3,1,-0.38,-0.35,-0.39,-0.41
UST,1,-1.5,-1.55,-1.49,-1.45
COCH,1,-0.15,0.08,-0.14,-0.39
RIBC1,1,-0.69,-1.04,-0.66,-0.36
PPIA,1,-0.45,-0.44,-0.4,-0.51
KIF6,1,-0.2,-0.05,-0.22,-0.34
LINC01591,1,0.4,0.33,0.61,0.26
CCDC7,1,-0.08,0.06,-0.37,0.07
CCDC7,2,0.52,0.41,0.24,0.9
IFITM3,1,1.05,1.05,1.2,0.89
BAZ2A,1,1.23,1.16,1.25,1.29
HSPA5,1,-1.01,-0.87,-1.31,-0.85
STOML2,1,0.69,0.8,0.9,0.37
LOC388927 (retired record),1,0.58,1.11,0.19,0.44
DFFB,1,1.31,1.35,1.48,1.09
TTC13,1,-0.06,-0.74,0.15,0.41
DGKZ,1,-0.4,-0.29,-0.52,-0.41
TNFRSF25,1,0.16,0.24,0.23,0
LOC340228 (retired record),1,-0.37,-0.4,-0.44,-0.25
LOC387824 (retired record),1,0.15,0.5,-0.48,0.42
XRCC3,1,0.64,0.67,0.58,0.66
BSG,1,-0.38,-0.13,-0.74,-0.28
U2AF1L4,1,-2.14,-2.31,-2.33,-1.79
ASCL3,1,0.19,-0.04,0.09,0.51
MYSM1,1,0.16,0.25,0.07,0.17
